In patent US8946273B2, “S-Triazolyl alpha-mercapto acetanilides as inhibitors of HIV reverse transcriptase” (priority 2011, dated 2015):

Assays:
[1] = target: mutant HIV reverse transcriptases (Human immunodeficiency virus type 1, UniProt P12497, Y768C, cells depend on it); assay: Table 1 IC50 against mutant HIV reverse transcriptases; assay type: biochemical; conditions: read-out: IC50 Y181C; Y181C mutant RT
Method: (§1) Compounds of the invention were tested against the wild-type and four mutant HIV reverse transcriptases. The results are listed in Table 1 as EC50 (nM) and IC50 (nM). In the Table, A represents <50 nM, B is between 50 and 100 nM, and C is >100 nM. ND is not determined.

[2] = target: mutant HIV reverse transcriptases (Human immunodeficiency virus type 1, UniProt P12497, Y775L, cells depend on it); assay: as above; assay type: biochemical; conditions: read-out: IC50 Y188L; Y188L mutant RT
Method: as §1

Row | Structure (SMILES) | IC50 [1] [nM] | IC50 [2] [nM]
1 | Cc1ccc(-n2c(SCC(=O)Nc3ccc(C(=O)O)cc3Cl)nnc2C(F)F)c2c1CCCC2 [compound 2] | < 50 | > 100
2 | CCc1ccc(-n2c(SCC(=O)Nc3ccc(C(=O)O)cc3C)nnc2C(F)F)c2ccccc12 [compound 3] | > 100 | > 100
3 | CCc1ccc(-n2c(SCC(=O)Nc3ccc(C(=O)O)cc3Cl)nnc2C(F)F)c2ccccc12 [compound 4] | < 50 | > 100
4 | Cc1cc(C(=O)O)ccc1NC(=O)CSc1nnc(C(F)F)n1-c1ccc(C)c2c1CCCC2 [compound 5] | > 100 | > 100
5 | CCc1ccc(-n2c(Br)nnc2SCC(=O)Nc2ccc(C(=O)O)cc2C)c2ccccc12 [compound 6] | 50 to 100 | > 100
6 | CCc1ccc(-n2c(Br)nnc2SCC(=O)Nc2ccc(C(=O)O)cc2Cl)c2ccccc12 [compound 8] | < 50 | > 100
7 | COc1ccc2cccc(-n3c(Br)nnc3SCC(=O)Nc3ccc(C(=O)O)cc3Cl)c2c1 [compound 13] | < 50 | > 100
8 | O=C(CSc1nnc(C(F)F)n1-c1ccc(C2CC2)c2ccccc12)Nc1ccc(C(=O)O)cc1Cl [compound 14] | < 50 | > 100
9 | Cc1cc(C2CC2)c2ccccc2c1-n1c(Br)nnc1SCC(=O)Nc1ccc(S(=O)(=O)O)cc1Cl [compound 15] | < 50 | 50 to 100
10 | CCc1ccc(-n2c(SCC(=O)Nc3ccc(C(=O)O)cc3Cl)nnc2C(F)(F)F)c2ccccc12 [compound 16] | < 50 | > 100
11 | CCc1ccc(-n2c(CF)nnc2SCC(=O)Nc2ccc(C(=O)O)cc2Cl)c2ccccc12 [compound 17] | < 50 | > 100
12 | COc1ccc2c(C)ccc(-n3c(Br)nnc3SCC(=O)Nc3ccc(C(=O)O)cc3Cl)c2c1 [compound 18] | < 50 | < 50
13 | CCc1ccc(-n2c(Br)nnc2SCC(=O)Nc2ccc(S(=O)(=O)O)cc2Br)c2ccccc12 [compound 20] | < 50 | 50 to 100
14 | O=C(CSc1nnc(Br)n1-c1ccc(C2CC2)cc1Cl)Nc1ccc(S(=O)(=O)O)cc1Cl [compound 21] | < 50 | > 100
15 | CCc1ccc(-n2c(Br)nnc2SCC(=O)Nc2ccc(C(=O)O)cc2Br)c2ccccc12 [compound 22] | < 50 | 50 to 100
16 | Cc1cc(C2CC2)c2ccccc2c1-n1c(Br)nnc1SCC(=O)Nc1ccc(C(=O)O)cc1Cl [compound 23] | < 50 | > 100
17 | O=C(CSc1nnc(Br)n1-c1ccc(C2CC2)cc1OC(F)(F)F)Nc1ccc(S(=O)(=O)O)cc1Cl [compound 24] | 50 to 100 | > 100
18 | O=C(CSc1nnc(Br)n1-c1c(Cl)cc(C2CCC2)c2ccccc12)Nc1ccc(C(=O)O)cc1Cl [compound 25] | < 50 | 50 to 100
19 | O=C(CSc1nnc(Br)n1-c1ccc(C2CCC2)c2ccccc12)Nc1ccc(C(=O)O)cc1Cl [compound 26] | < 50 | > 100
20 | COc1cccc2c(-n3c(Br)nnc3SCC(=O)Nc3ccc(C(=O)O)cc3Cl)cccc12 [compound 27] | 50 to 100 | > 100
21 | Cc1cc(C2CC2)cc(Cl)c1-n1c(Br)nnc1SCC(=O)Nc1ccc(C(=O)O)cc1Cl [compound 28] | < 50 | > 100
22 | CCc1cc(C2CC2)ccc1-n1c(Br)nnc1SCC(=O)Nc1ccc(C(=O)O)cc1Cl [compound 29] | 50 to 100 | > 100
23 | O=C(CSc1nnc(Br)n1-c1ccc(C2CC2)cc1C(F)(F)F)Nc1ccc(C(=O)O)cc1Cl [compound 30] | 50 to 100 | > 100
24 | O=C(CSc1nnc(Br)n1-c1ccc(C2CC2)cc1Cl)Nc1ccc(C(=O)O)cc1Cl [compound 31] | < 50 | > 100
25 | O=C(CSc1nnc(Br)n1-c1cccc2c(OCC3CC3)cccc12)Nc1ccc(C(=O)O)cc1Cl [compound 32] | > 100 | > 100
26 | Cc1cc(C2CC2)cc(C)c1-n1c(Br)nnc1SCC(=O)Nc1ccc(C(=O)O)cc1Cl [compound 33] | < 50 | > 100
27 | NS(=O)(=O)c1ccc(NC(=O)CSc2nnc(C(F)F)n2-c2ccc3c4c(cccc24)CC3)c(Cl)c1 [compound 36] | < 50 | > 100
28 | NS(=O)(=O)c1ccc(NC(=O)CSc2nnc(Br)n2-c2ccc3c4c(cccc24)CC3)c(Cl)c1 [compound 37] | < 50 | 50 to 100

Row | Structure (SMILES) | IC50 [1] [nM] | IC50 [2] [nM]
29 | Cc1cc(S(N)(=O)=O)ccc1NC(=O)CSc1nnc(Br)n1-c1ccc2c3c(cccc13)CC2 [compound 38] | < 50 | > 100
30 | Cc1cc(S(N)(=O)=O)ccc1NC(=O)CSc1nnc(Br)n1-c1ccc(C2CC2)c2ccccc12 [compound 40] | < 50 | > 100
31 | CCc1ccc(-n2c(C)nnc2SCC(=O)Nc2ccc(S(N)(=O)=O)cc2C)c2c1CCCC2 [compound 41] | > 100 | > 100
32 | CCc1ccc(-n2c(C)nnc2SCC(=O)Nc2ccc(S(N)(=O)=O)cc2Cl)c2c1CCCC2 [compound 43] | 50 to 100 | > 100
33 | NS(=O)(=O)c1ccc(NC(=O)CSc2nnc(C(F)F)n2-c2ccc(C3CC3)c3ccccc23)c(Cl)c1 [compound 44] | < 50 | > 100
34 | Cc1cc(S(N)(=O)=O)ccc1NC(=O)CSc1nnc(C)n1-c1ccc(C)c2c1CCCC2 [compound 45] | > 100 | > 100
35 | Cc1ccc(-n2c(C)nnc2SCC(=O)Nc2ccc(S(N)(=O)=O)cc2Cl)c2c1CCCC2 [compound 46] | 50 to 100 | > 100
36 | CCc1ccc(-n2c(SCC(=O)Nc3ccc(S(N)(=O)=O)cc3Cl)nnc2C(F)F)c2c1CCCC2 [compound 47] | < 50 | > 100
37 | Cc1cc(S(N)(=O)=O)ccc1NC(=O)CSc1nnc(C(F)F)n1-c1ccc(C)c2c1CCCC2 [compound 48] | < 50 | > 100
38 | CCc1ccc(-n2c(CF)nnc2SCC(=O)Nc2ccc(S(N)(=O)=O)cc2C)c2ccccc12 [compound 49] | 50 to 100 | > 100
39 | Cc1cc(C2CC2)c2ccccc2c1-n1c(Br)nnc1SCC(=O)Nc1ccc(S(N)(=O)=O)cc1Cl [compound 50] | < 50 | 50 to 100
40 | CNS(=O)(=O)c1ccc(NC(=O)CSc2nnc(C(F)F)n2-c2ccc(C)c3c2CCCC3)c(Cl)c1 [compound 51] | < 50 | > 100
41 | Cc1cc(S(N)(=O)=O)ccc1NC(=O)CSc1nnc(CF)n1-c1c(C)cc(C)c2ccccc12 [compound 52] | > 100 | > 100
42 | Cc1cc(C)c2ccccc2c1-n1c(CF)nnc1SCC(=O)Nc1ccc(S(N)(=O)=O)cc1Cl [compound 53] | < 50 | > 100
43 | CNS(=O)(=O)c1ccc(NC(=O)CSc2nnc(C(F)F)n2-c2ccc(C)c3ccccc23)c(Cl)c1 [compound 54] | < 50 | > 100
44 | CCc1ccc(-n2c(CF)nnc2SCC(=O)Nc2ccc(S(=O)(=O)NC)cc2Cl)c2ccccc12 [compound 55] | < 50 | > 100
45 | CCOC(=O)C(C)NS(=O)(=O)c1ccc(NC(=O)CSc2nnc(C(F)F)n2-c2ccc(C)c3c2CCCC3)c(Cl)c1 (centres unmarked) [compound 56] | > 100 | > 100
46 | Cc1ccc(-n2c(SCC(=O)Nc3ccc(S(=O)(=O)NCCN4CCOCC4)cc3Cl)nnc2C(F)F)c2c1CCCC2 [compound 57] | 50 to 100 | > 100
47 | Cc1ccc(-n2c(SCC(=O)Nc3ccc(S(=O)(=O)NCCC(=O)O)cc3Cl)nnc2C(F)F)c2c1CCCC2 [compound 58] | > 100 | > 100
48 | Cc1ccc(-n2c(SCC(=O)Nc3ccc(S(=O)(=O)NC(C)C(=O)O)cc3Cl)nnc2C(F)F)c2c1CCCC2 (centres unmarked) [compound 59] | > 100 | > 100
49 | Cc1ccc(-n2c(SCC(=O)Nc3ccc(S(=O)(=O)NC(C(=O)O)C(C)C)cc3Cl)nnc2C(F)F)c2c1CCCC2 (centres unmarked) [compound 60] | > 100 | > 100
50 | NS(=O)(=O)c1ccc(NC(=O)CSc2nnc(Br)n2-c2ccc(F)c3ccccc23)c(Cl)c1 [compound 61] | < 50 | > 100
51 | Cc1cc(S(N)(=O)=O)ccc1NC(=O)CSc1nnc(Br)n1-c1ccc(F)c2ccccc12 [compound 62] | > 100 | > 100
52 | Cc1ccc2c(C)cc(C)c(-n3c(SCC(=O)Nc4ccc(S(N)(=O)=O)cc4Cl)nnc3C(F)F)c2n1 [compound 63] | 50 to 100 | > 100
53 | Cc1ccc2c(C)cc(C)c(-n3c(SCC(=O)Nc4ccc(S(N)(=O)=O)cc4C)nnc3C(F)F)c2n1 [compound 64] | > 100 | > 100
54 | Cc1cc(S(N)(=O)=O)ccc1NC(=O)CSc1nnc(CF)n1-c1ccc(C)c2c1CCCC2 [compound 65] | > 100 | > 100
55 | NS(=O)(=O)c1ccc(NC(=O)CSc2nncn2-c2ccc(C3CC3)c3ccccc23)c(Cl)c1 [compound 66] | 50 to 100 | > 100
